Tested on: RED-tris-NTA/His6-peptide interaction
Experiment: Buffer additive screen: His6-peptide titrated against RED-tris-NTA with additives in PBST
Assay type: binding
Conditions: for Maximum allowed assay concentration: highest additive concentration that did not alter the Kd of His6-peptide/RED-tris-NTA, PBST; for Maximum allowed assay concentration (in words): tested at 100 nM, ions compete for binding with tris-NTA fluorophores

With `O[C@@H](CS)[C@@H](O)CS` (racemic) [DTT, dithiothreitol] the “Maximum allowed assay concentration” value was 5 mM.
`Nc1ncnc2c1ncn2[C@@H]1O[C@H](COP(=O)(O)OP(=O)(O)O)[C@@H](O)[C@H]1O` [ADP] was tested, and the “Maximum allowed assay concentration” value was 5 mM.
For `Nc1ncnc2c1ncn2[C@@H]1O[C@H](COP(=O)(O)O)[C@@H](O)[C@H]1O` [AMP], the “Maximum allowed assay concentration” value was 5 mM.
For `Nc1ncnc2c1ncn2[C@@H]1O[C@H](COP(=O)(O)OP(=O)(O)OP(=O)(O)O)[C@@H](O)[C@H]1O` [ATP], the “Maximum allowed assay concentration” value was 5 mM.
In the case of `[Cu+2]` [Cu(II)], the “Maximum allowed assay concentration (in words)” value is reported as “preloaded protein only”.
In the case of `O=C(O)CN(CCN(CC(=O)O)CC(=O)O)CC(=O)O` [EDTA, ethylenediaminetetraacetic acid], the “Maximum allowed assay concentration” value is reported as 0.5 mM.
In the case of `O=C(O)CN(CCOCCOCCN(CC(=O)O)CC(=O)O)CC(=O)O` [EGTA, ethylenglycol-bis(aminoethylether)], the “Maximum allowed assay concentration” value is reported as 0.5 mM.
`Nc1nc2c(ncn2[C@@H]2O[C@H](COP(=O)(O)OP(=O)(O)O)[C@@H](O)[C@H]2O)c(=O)[nH]1` [GDP] was tested, and the “Maximum allowed assay concentration” value was 1 mM.
`Nc1nc2c(ncn2[C@@H]2O[C@H](COP(=O)(O)OP(=O)(O)OP(=O)(O)O)[C@@H](O)[C@H]2O)c(=O)[nH]1` [GTP] was tested, and the “Maximum allowed assay concentration” value was 1 mM.
For `N[C@@H](Cc1c[nH]cn1)C(=O)O` [Histidine], the “Maximum allowed assay concentration” value was 1 mM.
`c1c[nH]cn1` [Imidazole] was tested, and the “Maximum allowed assay concentration” value was 1 mM.
For `[Mg+2]` [Mg(II)], the “Maximum allowed assay concentration” value was 5 mM.
In the case of `[Zn+2]` [Zn(II)], the “Maximum allowed assay concentration (in words)” value is reported as “preloaded protein only”.
`OCCS` [ß-mercapto-ethanol] was tested, and the “Maximum allowed assay concentration” value was 1 mM.
